According to the CheMixHub viscosity set:

Conditions: 101.3 kPa

CCCC[N+]1(C)CCCC1.O=S(=O)(F)[N-]S(=O)(=O)F
Conditions | viscosity [mPa·s]
293.15 K | 107 ± 21
298.15 K | 86 ± 17
303.15 K | 70.2 ± 14
308.15 K | 58 ± 12
313.15 K | 48.6 ± 9.7
318.15 K | 41.2 ± 8.3
323.15 K | 35.2 ± 7.1

± gives the uncertainty stated by the source.
